A mixed list of measured activities; the numbers were collected in NIAID ChemDB.

All rows: tests in culture; agent: HIV-1; cells: MT-4; measure: EC50

a–b is a range or a potency band.

SMILES	strain	mutations	read by	result
CC1=CC(=O)N(COCC[Si](C)(C)C(C)(C)C)S(=O)(=O)N1COCC[Si](C)(C)C(C)(C)C	-	-	cytopathic effect / MTT	>400 µg/mL
Cc1ccc(-n2c(Cc3ccccn3)n[nH]c2=S)cc1Cl	IIIB	-	cytopathic effect / MTT	>100 µM
Cc1cc(C#N)cc(C)c1Oc1nc(Nc2ccc(NS(C)(=O)=O)cc2)nc2ccsc12	IIIB	-	MTT	1.77 µM
CC(C)CN(C[C@@H](O)[C@H](Cc1ccccc1)NC(=O)O[C@H]1CO[C@H]2OCC[C@H]21)S(=O)(=O)c1ccc2nc(NC3CCN(C4CCCC4)CC3)sc2c1	T13632	V32I I50V L76V V82I	reporter gene	42 nM
CSCSc1nc(C(C)c2c(F)cccc2F)cc(=O)[nH]1	IIIB	-	cytopathic effect / MTT	0.1 µM
CC(C)CN(C[C@@H](O)[C@H](Cc1ccccc1)NC(=O)OCc1cncs1)S(=O)(=O)c1ccc2nc(NC(=O)CN3CCN(C)CC3)sc2c1	R13025	-	cytopathic effect / MTT	0.0166 µM
CCc1c(Sc2ccccc2)n(COCc2ccccc2)c(=O)[nH]c1=O	RF	-	cytopathic effect / MTT	0.0016 µM
Nc1ncnc2c1ncn2[C@@H]1C=C[C@H](CO)[C@H]1CO	IIIB	-	XTT	0.71 µg/mL
CN(CCN1CCCC1)C(=O)c1ccc(C2=NN3C(C(=O)c4ccc(F)cc4)Oc4ccccc4C3C2)cc1	LAI	-	GFP / reporter gene	1–10 µM
CC1=CC(=O)N(COCc2ccccc2)S(=O)(=O)N1COCc1ccccc1	-	-	cytopathic effect / MTT	>400 µg/mL
COC(=O)c1ccc(NC(=O)COc2nsnc2-c2cccc3ccccc23)cc1	IIIB	-	MTT	>4.9 µM
FC(F)(F)c1cccc(-n2c(Cc3ccccn3)n[nH]c2=S)c1	IIIB	-	cytopathic effect / MTT	>100 µM
CC(C)CN(C[C@@H](O)[C@H](Cc1ccccc1)NC(=O)O[C@H]1CO[C@H]2OCC[C@H]21)S(=O)(=O)c1ccc2nc(NC(=O)CN3CCCC3)sc2c1	LAI	-	cytopathic effect / MTT	<0.05 µM
CC(C)CN(C[C@@H](O)[C@H](Cc1cc(F)cc(F)c1)NC(=O)O[C@H]1C2COC3OCC1C3C2)S(=O)(=O)c1ccc2nc(NC3CC3)sc2c1	NL4-3	-	p24	0.000018 µM
OC[C@H]1O[C@@H](n2nnc3ccnc(Cl)c32)[C@H](O)[C@@H]1O	-	-	cytopathic effect	>15 µM
Nc1ccn([C@@H]2CS[C@H](CO)O2)c(=O)n1	IIIB	E138K	MTT	2.9 µM
O=c1cc(Sc2ccccc2)n(COCCO)c(=O)[nH]1	IIIB	-	cytopathic effect / MTT	>500 µM
Clc1cccc(Nc2nnc(Cc3ccccn3)s2)c1	IIIB	-	cytopathic effect / MTT	>100 µM
CC1C(=S)Nc2ccc(Cl)cc2S(=O)(=O)N1CC=Cc1ccccc1	-	-	cytopathic effect / MTT	>16 µM
CC1=CC(=O)NS(=O)(=O)N1COCc1ccccc1	-	-	cytopathic effect / MTT	>400 µg/mL
COc1ccc(Cn2cc(COc3nsnc3-c3cccc4ccccc34)nn2)cc1	IIIB	-	MTT	>116 µM
CC(C)=CCN1C(C)C(=O)Nc2ccc(Cl)cc2S1(=O)=O	-	-	cytopathic effect / MTT	0.8 µM
CC1=CC(=O)N(Cc2ccccc2)S(=O)(=O)N1COCC[Si](C)(C)C(C)(C)C	-	-	cytopathic effect / MTT	>400 µg/mL
CN(C)CCCNC(=O)c1ccc(C2=NN3C(C(=O)c4ccc(F)cc4)Oc4ccccc4C3C2)cc1	LAI	-	GFP / reporter gene	>10 µM
CC(C)CN(C[C@@H](O)[C@H](Cc1ccccc1)NC(=O)OCc1cncs1)S(=O)(=O)c1ccc2nc(N(C)C(=O)CN(C)CCCN3CCCC3)sc2c1	R13025	-	cytopathic effect / MTT	0.9333 µM
CC(C)(C)[Si](C)(C)CCOCN1C=C(C#N)C(N)=NS1(=O)=O	-	-	cytopathic effect / MTT	>400 µg/mL
O=C(COc1nsnc1-c1cccc2ccccc12)Nc1ccccc1Cl	IIIB	-	MTT	>126 µM
Cc1ccccc1CN1C(C)C(=O)Nc2ccc(Cl)cc2S1(=O)=O	-	-	cytopathic effect / MTT	1 µM
O=C(NC1CCC1)c1ccc(C2=NN3C(C(=O)c4ccc(F)cc4)Oc4ccccc4C3C2)cc1	LAI	-	GFP / reporter gene	<1 µM
Nc1ccn([C@@H]2O[C@H](CO)[C@@H](F)[C@H]2O)c(=O)n1	-	-	-	>20 µM
Cc1cc(C#N)cc(C)c1Oc1nc(Nc2ccc(NS(=O)(=O)c3ccc([N+](=O)[O-])cc3)cc2)nc2ccsc12	IIIB	-	MTT	1.35 µM
O=C(NCc1ccco1)c1ccc(C2=NN3C(C(=O)c4ccc(F)cc4)Oc4ccccc4C3C2)cc1	LAI	-	GFP / reporter gene	1–10 µM
Nc1ncnc2c1nnn2[C@H]1C[C@H](O)[C@@H](CO)O1	-	-	cytopathic effect	>1.2 µM
CSc1cc(N)nc(S[C@@H](C)c2cc3ccoc3cn2)n1	MF DLV-resistant (RT P236L)	RT-P236L	p24	<0.02 µM
NC1=NS(=O)(=O)N(COCCO)C=C1	-	-	cytopathic effect / MTT	>400 µg/mL
O=C(Cc1ccccn1)NNC(=S)Nc1ccc(F)c(Cl)c1	IIIB	-	cytopathic effect / MTT	>100 µM
Cc1cc(C)cc(Cc2c(I)c(=O)[nH]c(=O)n2COCc2ccccc2)c1	SF33	-	p24 / ELISA	0.004 µM
Cc1cccc(C)c1OCC(=O)N[C@@H](Cc1ccccc1)[C@H](O)CN(CC(C)C)S(=O)(=O)c1ccc2nc(NC(=O)c3ccccn3)sc2c1	IIIB	-	cytopathic effect / MTT	0.01 µM
O=C1CNS(=O)(=O)c2cc(Cl)cc([N+](=O)[O-])c2N1	-	-	cytopathic effect / MTT	>200 µM
O=c1ccn([C@@H]2O[C@H](CO)[C@@H](F)[C@H]2O)c(=O)[nH]1	-	-	-	>20 µM
C#CCOCN1C=CC(=O)N(COCC#C)S1(=O)=O	-	-	cytopathic effect / MTT	>400 µg/mL
Cc1cn([C@@H]2O[C@H](CO)C3(OS(=O)(=O)C=C3N)[C@H]2O)c(=O)[nH]c1=O	IIIB	-	cytopathic effect / trypan blue	>100 µg/mL
CCCc1ccc(C(=O)C2Oc3ccccc3C3CC(c4ccc(C(=O)NC5CCCC5)cc4)=NN23)cc1	LAI	-	GFP / reporter gene	<1 µM
Nc1nccc2c1ncn2[C@@H]1O[C@H](CO)[C@@H](O)[C@H]1O	-	-	cytopathic effect	>218 µM
CC(=O)N(CCN1CCCC1)c1nc2ccc(S(=O)(=O)N(CC(C)C)C[C@@H](O)[C@H](Cc3ccccc3)NC(=O)O[C@H]3CO[C@H]4OCC[C@H]43)cc2s1	R13080	-	cytopathic effect / MTT	0.0269 µM
Cc1ccnc2c1NC(=O)c1cccnc1N2C1CC1	IIIB	K103N	MTT	5.6 µM
OC[C@H]1O[C@@H](n2nnc3ccnc(Cl)c32)C[C@@H]1O	-	-	cytopathic effect	>368 µM
CC(C)CN(C[C@@H](O)[C@H](Cc1ccccc1)NC(=O)O[C@H]1C2COC3OCC1C3C2)S(=O)(=O)c1ccc2nc(NC3CC3)sc2c1	NL4-3	-	p24	0.0003 µM
Cc1ccc(NC(=O)COc2nsnc2-c2cccc3ccccc23)c(Br)c1	IIIB	-	MTT	>14 µM
Nc1nccc2c1nnn2[C@H]1CC[C@@H](CO)O1	-	-	cytopathic effect	>387 µM
CC(C)(C)[Si](C)(C)CCOCN1C=CC(=O)N(COCC[Si](C)(C)C(C)(C)C)S1(=O)=O	-	-	cytopathic effect / MTT	>400 µg/mL
O=C(COc1nsnc1-c1cccc2ccccc12)Nc1ccccc1F	IIIB	-	MTT	>126 µM
Cc1cc(C#N)cc(C)c1Oc1nc(NC2CCN(S(=O)(=O)c3ccc(N)cc3)CC2)nc2ccsc12	IIIB	-	MTT	1.35 µM
CSCSc1nc(Cc2c(F)cccc2F)cc(=O)[nH]1	IIIB	RT-K103N Y181C	cytopathic effect / MTT	>100 µM
CC(C)CN(C[C@@H](O)[C@H](Cc1ccccc1)NC(=O)O[C@H]1CO[C@H]2OCC[C@H]21)S(=O)(=O)c1ccc2nc(N(C)CCCN(C)C)sc2c1	R13025	-	cytopathic effect / MTT	0.3236 µM
CC(=O)c1ccc(S(=O)(=O)N2CCC(Nc3nc(Oc4c(C)cc(C#N)cc4C)c4sccc4n3)CC2)cc1	IIIB	-	MTT	0.33 µM

4 of the rows above, restated:

SMILES | strain | mutations | read by | result
CCc1c(Sc2ccccc2)n(COCc2ccccc2)c(=O)[nH]c1=O | RF | - | cytopathic effect / MTT | 0.0016 µM
Nc1ccn([C@@H]2O[C@H](CO)[C@@H](F)[C@H]2O)c(=O)n1 | - | - | - | >20 µM
CN(CCN1CCCC1)C(=O)c1ccc(C2=NN3C(C(=O)c4ccc(F)cc4)Oc4ccccc4C3C2)cc1 | LAI | - | GFP / reporter gene | 1–10 µM
CC(=O)c1ccc(S(=O)(=O)N2CCC(Nc3nc(Oc4c(C)cc(C#N)cc4C)c4sccc4n3)CC2)cc1 | IIIB | - | MTT | 0.33 µM

Lines come from different laboratories, so protocols vary. An empty or dashed field is not shown. ECn: concentration that inhibits the pathogen or its effect by n%.